PubChem BioAssay AID1224833 – University of Georgia – 2016
Here is a random part of about 12,000 deposited reagents. In the full data, about 5,600 (46%) were called active. 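Active calls cover z-scores past 1 in both directions, so they include lowered as well as raised rotavirus replication.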 A number with no mark means an inactive call.

Test: 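Human genes whose knock-down alters rotavirus replication in monkey cells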 (primary screen)
Cell system: monkey MA104 kidney cells
Knock-down reagent: siRNA pool against human genes, 50 nM
Time to read-out: 48 h knock-down before infection; read 24 h after infection
Treatment: infection with rotavirus strain RV3 two days after transfection; infectious dose for this stage not given
Read-out: 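z-score of rotavirus antigen signal per well, from a fluorescent immunoassay, relative to non-targeting control wells on the same plate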
Direction: z-score vs non-targeting control: higher = more rotavirus replication than with non-targeting control
Rule for the call: In these data the active calls have z-score vs non-targeting control at about -1 or lower, or at about 1 or higher
Meaning of the calls: active = z-score beyond 1 either way; inactive = z-score within 1 of zero

Gene | z-score vs non-targeting control
OC90 (GeneID 729330) | -0.914
CTSC (GeneID 1075) | -0.855
LIM2 (GeneID 3982) | 0.231
ZNF593 (GeneID 51042) | -0.0036
BCL10 (GeneID 8915) | 2.07 (active)
TSPY1 (GeneID 7258) | 0.885
SLC8A1 (GeneID 6546) | -0.902
PHOSPHO1 (GeneID 162466) | -0.696
SMPDL3B (GeneID 27293) | -1.26 (active)
CEP350 (GeneID 9857) | 1.68 (active)
PUF60 (GeneID 22827) | -0.827
PURA (GeneID 5813) | -2.29 (active)
PHLDB1 (GeneID 23187) | -1.35 (active)
CCN6 (GeneID 8838) | -0.796
CCDC77 (GeneID 84318) | -0.694
ARPP19 (GeneID 10776) | -5.55 (active)
CIMIP6 (GeneID 129852) | -1.48 (active)
SCGB2A2 (GeneID 4250) | 0.774
TBL2 (GeneID 26608) | -1.3 (active)
SLTM (GeneID 79811) | -0.885
ACRBP (GeneID 84519) | 0.114
SIPA1 (GeneID 6494) | -1.41 (active)
YLPM1 (GeneID 56252) | 0.642
HBA1 (GeneID 3039) | -1.8 (active)
TEX26 (GeneID 122046) | -0.631
FFAR3 (GeneID 2865) | -1.66 (active)
ARHGAP22 (GeneID 58504) | 1.6 (active)
ZNF484 (GeneID 83744) | -0.393
ZNF658 (GeneID 26149) | -0.508
GRAMD1C (GeneID 54762) | -0.655
E2F7 (GeneID 144455) | 0.681
MPHOSPH6 (GeneID 10200) | -1.73 (active)
IL4I1 (GeneID 259307) | 1.07 (active)
ACAP2 (GeneID 23527) | -1.78 (active)
TSC22D3 (GeneID 1831) | 1.13 (active)
MORN1 (GeneID 79906) | 0.863
OR56A4 (GeneID 120793) | -1.95 (active)
NOL9 (GeneID 79707) | -1.49 (active)
IFI35 (GeneID 3430) | -0.408
R3HCC1L (GeneID 27291) | -1.73 (active)
SLC34A1 (GeneID 6569) | -1.58 (active)
RAB19 (GeneID 401409) | -1.31 (active)
FASTKD4 (GeneID 9238) | -1.21 (active)
TEX15 (GeneID 56154) | -1.81 (active)
RGS16 (GeneID 6004) | -0.517
